Reference: PubChem BioAssay AID624099 (ICCB-Longwood, 2012)
Aim: 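Knock-downs relieving repression by E2 of an HPV18 LCR luciferase reporter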 (primary screen). Cell system: human C33A cervical carcinoma cells (HPV-negative) stably expressing BPV1 E2 and an HPV18 LCR luciferase reporter. Reagents: siRNA pool against human genes, 40 nM. Time to read-out: 72 h. Measurement: 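HPV18 LCR reporter light per well, converted to plate-wise z-scores that exclude control wells, and averaged over triplicate plates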. Scale: mean z-score and z-score: higher = stronger reporter signal, weaker E2 silencing. Hit rule: 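Hit if mean z-score reaches 2 and two or more of three replicate z-scores also reach 2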.
The whole screen tested about 21,000 reagents; this is a part drawn at random. 497 of them (2.4%) were called active. 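Higher z means weaker E2 silencing; only reporter increases were scored, and knock-downs that hurt cell survival may mask genuine repressor factors.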

With LOC401357, what was measured?
mean z-score: 0.77; z-score, replicate A: 0.57; z-score, replicate B: 0.89; z-score, replicate C: 0.84; activity call: inactive

How did the screen score FRMD1?
mean z-score: 0.43; z-score, replicate A: 0.55; z-score, replicate B: 0.86; z-score, replicate C: -0.11; activity call: inactive

What did the screen give for RALY?
mean z-score: 0.9; z-score, replicate A: 1.17; z-score, replicate B: 0.83; z-score, replicate C: 0.72; activity call: inactive

With CAPN2, what does the deposit list?
mean z-score: -1.08; z-score, replicate A: -0.6; z-score, replicate B: -1.34; z-score, replicate C: -1.29; activity call: inactive

With FRG1BP, what does the deposit list?
mean z-score: -0.38; z-score, replicate A: -0.49; z-score, replicate B: -0.42; z-score, replicate C: -0.23; activity call: inactive

How did the screen score SPEM2?
mean z-score: 0.3; z-score, replicate A: 0.48; z-score, replicate B: 0.33; z-score, replicate C: 0.09; activity call: inactive

With ANKK1, what does the deposit list?
mean z-score: -0.6; z-score, replicate A: -0.7; z-score, replicate B: -0.79; z-score, replicate C: -0.32; activity call: inactive

With SLC2A1, how do the results read?
mean z-score: -0.4; z-score, replicate A: -0.34; z-score, replicate B: -0.32; z-score, replicate C: -0.53; activity call: inactive

With PPDPF, how do the results read?
mean z-score: 1.75; z-score, replicate A: 2.16; z-score, replicate B: 1.46; z-score, replicate C: 1.63; activity call: inactive

What is on record for ACSL5?
mean z-score: -0.91; z-score, replicate A: -0.82; z-score, replicate B: -0.75; z-score, replicate C: -1.17; activity call: inactive

How did the screen score RPP38-DT?
mean z-score: -1.37; z-score, replicate A: -1.19; z-score, replicate B: -1.54; z-score, replicate C: -1.36; activity call: inactive

How did the screen score CLDN19?
mean z-score: -0.45; z-score, replicate A: -0.74; z-score, replicate B: -0.51; z-score, replicate C: -0.09; activity call: inactive

What is on record for PDE6G?
mean z-score: 1.55; z-score, replicate A: 1.66; z-score, replicate B: 1.35; z-score, replicate C: 1.64; activity call: inactive

What is on record for HSD17B11?
mean z-score: 0.83; z-score, replicate A: 0.77; z-score, replicate B: 0.65; z-score, replicate C: 1.07; activity call: inactive

Which result is listed for CYREN?
mean z-score: 1.15; z-score, replicate A: 0.97; z-score, replicate B: 0.94; z-score, replicate C: 1.55; activity call: inactive

What is on record for USF3?
mean z-score: 1.39; z-score, replicate A: 1.32; z-score, replicate B: 1.45; activity call: inactive

What did the screen give for LOC402036 (retired record)?
mean z-score: 0.02; z-score, replicate A: -0.01; z-score, replicate B: 0; z-score, replicate C: 0.08; activity call: inactive

What did the screen give for MIR3667HG?
mean z-score: -0.98; z-score, replicate A: -1.06; z-score, replicate B: -1.01; z-score, replicate C: -0.86; activity call: inactive

How did the screen score SEMA6C?
mean z-score: -0.08; z-score, replicate A: -0.21; z-score, replicate B: 0.06; z-score, replicate C: -0.1; activity call: inactive

What is on record for UNC93B1?
mean z-score: -0.34; z-score, replicate A: -0.23; z-score, replicate B: -0.51; z-score, replicate C: -0.28; activity call: inactive

For IGF2BP1, how do the results read?
mean z-score: -1.5; z-score, replicate A: -1.16; z-score, replicate B: -1.85; z-score, replicate C: -1.47; activity call: inactive

Sorted by “z-score, replicate C” (highest first): 2 of the entries above.
PPDPF → mean z-score = 1.75; z-score, replicate A = 2.16; z-score, replicate B = 1.46; z-score, replicate C = 1.63; activity call = inactive
ACSL5 → mean z-score = -0.91; z-score, replicate A = -0.82; z-score, replicate B = -0.75; z-score, replicate C = -1.17; activity call = inactive
